Where two headings read alike, the source gives them in different places.
Key:
L. stagnalis AChBP = L. stagnalis AChBP (Lymnaea stagnalis, UniProt P58154)
human α7 nAChR [1] = target: T1, human α7 nAChR (Homo sapiens, UniProt P36544)
A. californica AChBP [2] = target: T2, A. californica AChBP (Aplysia californica, UniProt Q8WSF8)
human α7 nAChR [3] = target: T1, human α7 nAChR; assay: Competition radioligand assay with [125I]-PnIA[L5R, A10L, D14R], human α7 nAChR in GH4C1 cells; settings: read-out: IC50 in competition with [125I]-PnIA[L5R, A10L, D14R], mean ± s.e.m., n = 3, radioligand 180 nM
A. californica AChBP [4] = target: T2, A. californica AChBP; remark: listed apart in the source
A. californica AChBP [5] = target: T2, A. californica AChBP; settings: read-out: IC50 in competition with [125I]-αBgt; cited from earlier work

Amino acid sequences for entries named in this document (tags omitted). Residues count along the entry.
UniProt P58154, 20-229 limits assumed: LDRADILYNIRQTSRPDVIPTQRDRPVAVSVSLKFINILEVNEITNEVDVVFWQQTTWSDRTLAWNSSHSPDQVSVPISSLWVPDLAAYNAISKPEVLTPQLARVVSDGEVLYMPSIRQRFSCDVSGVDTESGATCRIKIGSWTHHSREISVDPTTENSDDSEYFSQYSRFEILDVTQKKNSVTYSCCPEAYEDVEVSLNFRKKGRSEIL
UniProt P36544, 23-502 limits assumed: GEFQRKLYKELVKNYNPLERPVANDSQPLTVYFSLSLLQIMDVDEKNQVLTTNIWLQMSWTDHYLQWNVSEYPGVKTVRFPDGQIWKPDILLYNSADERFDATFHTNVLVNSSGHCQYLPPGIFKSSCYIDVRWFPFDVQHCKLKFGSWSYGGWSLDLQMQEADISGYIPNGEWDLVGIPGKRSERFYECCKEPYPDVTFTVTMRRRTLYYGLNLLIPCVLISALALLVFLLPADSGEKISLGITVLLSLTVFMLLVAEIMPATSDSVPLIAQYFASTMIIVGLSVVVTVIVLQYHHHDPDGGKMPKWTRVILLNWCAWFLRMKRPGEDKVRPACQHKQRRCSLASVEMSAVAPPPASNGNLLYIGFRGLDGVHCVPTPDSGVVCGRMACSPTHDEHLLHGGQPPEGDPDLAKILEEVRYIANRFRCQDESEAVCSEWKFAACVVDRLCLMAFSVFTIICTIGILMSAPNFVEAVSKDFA
UniProt Q8WSF8, 18-236 limits assumed: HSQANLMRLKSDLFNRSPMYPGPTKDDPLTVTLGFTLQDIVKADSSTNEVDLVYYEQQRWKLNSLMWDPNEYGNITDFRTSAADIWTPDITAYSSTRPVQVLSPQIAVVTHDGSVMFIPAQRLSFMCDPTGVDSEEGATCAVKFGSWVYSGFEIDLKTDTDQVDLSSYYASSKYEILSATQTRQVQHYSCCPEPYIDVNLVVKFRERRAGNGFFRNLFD

Row | Structure (SMILES) | IC50 (L. stagnalis AChBP) | IC50 (human α7 nAChR [1]) | IC50 (A. californica AChBP [2]) | IC50 (human α7 nAChR [3]) | IC50 (A. californica AChBP [4]) | IC50 (A. californica AChBP [5])
1 | C[C@@H]1NC(=O)[C@H](C)NC(=O)[C@@H]2CSSC[C@H](NC(=O)CN)C(=O)N[C@@H](CSSC[C@@H](C(N)=O)NC(=O)[C@H](Cc3ccc(O)cc3)NC(=O)[C@H](CC(=O)O)NC(=O)[C@@H]3CCCN3C(=O)[C@H](CC(N)=O)NC(=O)[C@H](CC(N)=O)NC1=O)C(=O)N[C@@H](CO)C(=O)N[C@@H](Cc1c[nH]cn1)C(=O)N1CCC[C@H]1C(=O)N1CCC[C@H]1C(=O)N2 | 0.22 µM | 26 µM | – | – | – | –
2 | CC(C)C[C@@H]1NC(=O)[C@H](C)NC(=O)[C@@H]2CSSC[C@H](NC(=O)CN)C(=O)N[C@@H](CSSC[C@@H](C(N)=O)NC(=O)[C@H](Cc3ccc(O)cc3)NC(=O)[C@H](CC(=O)O)NC(=O)[C@@H]3CCCN3C(=O)[C@H](CC(N)=O)NC(=O)[C@H](CC(N)=O)NC1=O)C(=O)N[C@@H](CO)C(=O)N[C@@H](CCCNC(=N)N)C(=O)N1CCC[C@H]1C(=O)N[C@@H](CC(=O)O)C(=O)N2 | 56 µM | > 100 µM | 28 µM | – | – | –
3 | CC(C)C[C@@H]1NC(=O)[C@H](C)NC(=O)[C@@H]2CSSC[C@H](NC(=O)CN)C(=O)N[C@@H](CSSC[C@@H](C(N)=O)NC(=O)[C@H](Cc3ccc(O)cc3)NC(=O)[C@H](CCCCN)NC(=O)[C@@H]3CCCN3C(=O)[C@H](CC(N)=O)NC(=O)[C@H](CC(N)=O)NC1=O)C(=O)N[C@@H](CO)C(=O)N[C@@H](CC(C)C)C(=O)N1CCC[C@H]1C(=O)N1CCC[C@H]1C(=O)N2 | 0.0082 µM | 7.2 µM | – | 1.8 µM | – | –
4 | CC(C)C[C@@H]1NC(=O)[C@H](C)NC(=O)[C@@H]2CSSC[C@H](NC(=O)CN)C(=O)N[C@@H](CSSC[C@@H](C(N)=O)NC(=O)[C@H](Cc3ccc(O)cc3)NC(=O)[C@H](CC(=O)O)NC(=O)[C@@H]3CCCN3C(=O)[C@H](CC(N)=O)NC(=O)[C@H](CC(N)=O)NC1=O)C(=O)N[C@@H](CO)C(=O)N[C@@H](CC(=O)O)C(=O)N1CCC[C@H]1C(=O)N[C@@H](CCCNC(=N)N)C(=O)N2 | 38 µM | > 100 µM | 0.051 µM | – | – | –
5 | C[C@@H]1NC(=O)[C@H](C)NC(=O)[C@@H]2CSSC[C@H](NC(=O)CN)C(=O)N[C@@H](CSSC[C@@H](C(N)=O)NC(=O)[C@H](Cc3ccc(O)cc3)NC(=O)[C@H](CCCNC(=N)N)NC(=O)[C@@H]3CCCN3C(=O)[C@H](CC(N)=O)NC(=O)[C@H](CC(N)=O)NC1=O)C(=O)N[C@@H](CO)C(=O)N[C@@H](Cc1c[nH]cn1)C(=O)N1CCC[C@H]1C(=O)N1CCC[C@H]1C(=O)N2 | 2.9 µM | 21 µM | 1.4 µM | – | – | –
6 | C[C@@H]1NC(=O)[C@@H]2CSSC[C@H](NC(=O)CN)C(=O)N[C@@H](CSSC[C@@H](C(N)=O)NC(=O)[C@H](CCCNC(=N)N)NC(=O)[C@H](Cc3c[nH]c4ccccc34)NC1=O)C(=O)N[C@@H](CO)C(=O)N[C@@H](CC(=O)O)C(=O)N1CCC[C@H]1C(=O)N[C@@H](CCCNC(=N)N)C(=O)N2 | – | – | – | – | 0.00084 µM | 0.033 µM
7 | CC(C)C[C@@H]1NC(=O)[C@H](C)NC(=O)[C@@H]2CSSC[C@H](NC(=O)CN)C(=O)N[C@@H](CSSC[C@@H](C(N)=O)NC(=O)[C@H](Cc3ccc(O)cc3)NC(=O)[C@H](CC(=O)O)NC(=O)[C@@H]3CCCN3C(=O)[C@H](CC(N)=O)NC(=O)[C@H](CC(N)=O)NC1=O)C(=O)N[C@@H](CO)C(=O)N[C@@H](CC(C)C)C(=O)N1CCC[C@H]1C(=O)N[C@@H](CC(=O)O)C(=O)N2 | > 100 µM | > 100 µM | 63 µM | – | – | –
8 | CC(C)C[C@@H]1NC(=O)[C@H](C)NC(=O)[C@@H]2CSSC[C@H](NC(=O)CN)C(=O)N[C@@H](CSSC[C@@H](C(N)=O)NC(=O)[C@H](Cc3c[nH]c4ccccc34)NC(=O)[C@H](CCCNC(=N)N)NC(=O)[C@@H]3CCCN3C(=O)[C@H](CC(N)=O)NC(=O)[C@H](CC(N)=O)NC1=O)C(=O)N[C@@H](CO)C(=O)N[C@@H](Cc1ccc(O)cc1)C(=O)N[C@@H](CCCNC(=N)N)C(=O)N[C@@H](CCCNC(=N)N)C(=O)N2 | 10 µM | 19 µM | 20 µM | – | – | –
9 | CC(C)C[C@@H]1NC(=O)[C@H](C)NC(=O)[C@@H]2CSSC[C@H](NC(=O)CN)C(=O)N[C@@H](CSSC[C@@H](C(N)=O)NC(=O)[C@H](Cc3ccc(O)cc3)NC(=O)[C@H](CC(=O)O)NC(=O)[C@@H]3CCCN3C(=O)[C@H](CC(N)=O)NC(=O)[C@H](CC(N)=O)NC1=O)C(=O)N[C@@H](CO)C(=O)N[C@@H](CCCNC(=N)N)C(=O)N1CCC[C@H]1C(=O)N1CCC[C@H]1C(=O)N2 | 0.18 µM | 12 µM | 0.305 µM | – | – | –
10 | C[C@@H]1NC(=O)[C@@H]2CCCN2C(=O)[C@H](CC(N)=O)NC(=O)[C@@H]2CSSC[C@@H](C(N)=O)NC(=O)[C@H](CO)NC(=O)[C@H](Cc3ccc(O)cc3)NC(=O)[C@H](Cc3c[nH]cn3)NC(=O)[C@H](CCCNC(=N)N)NC(=O)CNC(=O)[C@H](CSSC[C@H](NC(=O)[C@@H](N)CCC(=O)O)C(=O)N2)NC1=O | – | – | – | – | > 1 µM | 25.5 µM
11 | CC(C)C[C@@H]1NC(=O)[C@H](C)NC(=O)[C@@H]2CSSC[C@H](NC(=O)CN)C(=O)N[C@@H](CSSC[C@@H](C(N)=O)NC(=O)[C@H](Cc3ccc(O)cc3)NC(=O)[C@H](CCCNC(=N)N)NC(=O)[C@@H]3CCCN3C(=O)[C@H](CC(N)=O)NC(=O)[C@H](CC(N)=O)NC1=O)C(=O)N[C@@H](CO)C(=O)N[C@@H](CCCNC(=N)N)C(=O)N1CCC[C@H]1C(=O)N1CCC[C@H]1C(=O)N2 | 0.43 µM | 0.67 µM | 1.4 µM | 0.06 µM | – | –
12 | CC(C)[C@@H]1NC(=O)[C@H](C)NC(=O)[C@@H]2CSSC[C@H](NC(=O)CN)C(=O)N[C@@H](CSSC[C@@H](C(N)=O)NC(=O)[C@H](Cc3ccc(O)cc3)NC(=O)[C@H](CC(=O)O)NC(=O)[C@@H]3CCCN3C(=O)[C@H](CC(N)=O)NC(=O)[C@H](CC(N)=O)NC1=O)C(=O)N[C@@H](CO)C(=O)N[C@@H](CC(=O)O)C(=O)N1CCC[C@H]1C(=O)N[C@@H](CCCNC(=N)N)C(=O)N2 | 6.4 µM | > 100 µM | 0.045 µM | – | – | –
13 | CC(C)C[C@@H]1NC(=O)[C@H](C)NC(=O)[C@@H]2CSSC[C@H](NC(=O)CN)C(=O)N[C@@H](CSSC[C@@H](C(N)=O)NC(=O)[C@H](Cc3ccc(O)cc3)NC(=O)[C@H](CCCNC(=N)N)NC(=O)[C@@H]3CCCN3C(=O)[C@H](CC(N)=O)NC(=O)[C@H](CC(N)=O)NC1=O)C(=O)N[C@@H](CO)C(=O)N[C@@H](CC(=O)O)C(=O)N1CCC[C@H]1C(=O)N[C@@H](CCCNC(=N)N)C(=O)N2 | 1.2 µM | 23 µM | 0.046 µM | – | – | –
14 | CC(C)C[C@@H]1NC(=O)[C@H](C)NC(=O)[C@@H]2CSSC[C@H](NC(=O)CN)C(=O)N[C@@H](CSSC[C@@H](C(N)=O)NC(=O)[C@H](Cc3ccc(O)cc3)NC(=O)[C@H](CC(=O)O)NC(=O)[C@@H]3CCCN3C(=O)[C@H](CC(N)=O)NC(=O)[C@H](CC(N)=O)NC1=O)C(=O)N[C@@H](CO)C(=O)N[C@@H](CC(=O)O)C(=O)N1CCC[C@H]1C(=O)N1CCC[C@H]1C(=O)N2 | 35 µM | > 100 µM | 5.2 µM | – | – | –
15 | CC(C)C[C@@H]1NC(=O)[C@H](C)NC(=O)[C@@H]2CSSC[C@H](NC(=O)CN)C(=O)N[C@@H](CSSC[C@@H](C(N)=O)NC(=O)[C@H](Cc3ccc(O)cc3)NC(=O)[C@H](CC(=O)O)NC(=O)[C@@H]3CCCN3C(=O)[C@H](CC(N)=O)NC(=O)[C@H](CC(N)=O)NC1=O)C(=O)N[C@@H](CO)C(=O)N[C@@H](CC(C)C)C(=O)N1CCC[C@H]1C(=O)N[C@@H](CCCNC(=N)N)C(=O)N2 | > 100 µM | > 100 µM | 1.25 µM | – | – | –
16 | CC(C)C[C@@H]1NC(=O)[C@H](C)NC(=O)[C@@H]2CSSC[C@H](NC(=O)CN)C(=O)N[C@@H](CSSC[C@@H](C(N)=O)NC(=O)[C@H](Cc3ccc(O)cc3)NC(=O)[C@H](CCCNC(=N)N)NC(=O)[C@@H]3CCCN3C(=O)[C@H](CC(N)=O)NC(=O)[C@H](CC(N)=O)NC1=O)C(=O)N[C@@H](CO)C(=O)N[C@@H](CCCNC(=N)N)C(=O)N1CCC[C@H]1C(=O)N[C@@H](CC(=O)O)C(=O)N2 | 4.1 µM | 72 µM | 3.2 µM | – | – | –

Reference: publication PMC3210602, “Design of New α-Conotoxins: From Computer Modeling to Synthesis of Potent Cholinergic Compounds” (2011)
